{
  "source": "patent US5821331A",
  "about": "(Eli Lilly and Company, priority 1996, dated 1998)",
  "data": [
    {"assay": "peptide synthesis", "settings": "coupling step", "units": {"step yield": "%"}, "values": [
      {"substance": "N-tert-Butoxycarbonyl-L-valinyl-L-leucinyl-L-phenylalanyl-L-glutarimide", "step yield": 68},
      {"substance": "N-tert-Butyloxycarbonyl-L-valinyl-L-leucinyl-L-phenylalanylglycinenitrile", "step yield": 76}
    ]},
    {"assay": "peptide synthesis", "settings": "late stage modification step", "units": {"step yield": "%"}, "values": [
      {"substance": "N-(L-Valinyl-L-leucinyl-L-phenylalanyl)-L-glutamine aldehyde", "step yield": 5},
      {"substance": "N-(t-butoxycarbonyl-L-valinyl-L-leucinyl-L-phenylalanyl)-L-gluatamine aldehyde", "step yield": 72},
      {"substance": "N-tert-Butyloxycarbonyl-L-valinyl-L-leucinyl-L-phenylalanylglycinal", "step yield": 21},
      {"substance": "N-Acetyl-L-valinyl-L-leucinyl-L-phenylalanyl-L-glutarimide", "step yield": 72}
    ]}
  ]
}
